Taken from: PubChem BioAssay AID504761 (Drosophila RNAi Screening Center, 2011)
The deposit covers about 22,000 reagents; below is a random part of those that have a named target and a result. In the full data, 116 (0.52%) got an active call. 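Calls depend on retest data that are not deposited; infection was ranked per plate without normalising between plates; the unit of the infection score is not given.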 Raw values are not corrected between plates. A plus sign joins genes that one reagent is predicted to hit. Not given: the amount of reagent, the time to read-out.

Screen: 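Insect host genes that dengue virus relies on to spread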 (primary screen)
System: D.Mel-2 cells from Drosophila
Reagent: long dsRNA against Drosophila genes
Treatment: infection with dengue virus type 2; dose and infection time not stated
Detection: 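Per well on two replicate plates, imaging gave the percent of cells positive for viral envelope protein, ranked by infection, and a nuclear count of cells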
Direction: infection score: higher = more virus-infected cells; cell count: higher = more cells in the well
Hit rule: 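Low infection ranks in the two replicates (chance level up to 0.065) followed by a retest with a 1.5-fold or larger significant decrease, p below 0.05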
Calls: active = confirmed: knock-down lowers infection; inactive = not picked or not confirmed

| target | dsRNA | infection score, replicate 1 | infection score, replicate 2 | cell count, replicate 1 | cell count, replicate 2 | call |
| --- | --- | --- | --- | --- | --- | --- |
| CG9018 | DRSC08618 | 3.86 | 0.54 | 5548 | 6335 | inactive |
| CG31909 | DRSC22180 | 0.71 | 1.46 | 6516 | 6707 | inactive |
| CG31909 | DRSC26278 | 11.9 | 14.1 | 6541 | 6740 | inactive |
| fkh | DRSC16949 | 6.98 | – | 6658 | 352 | inactive |
| fkh | DRSC28213 | 2.43 | – | 782 | 393 | inactive |
| CG5245 | DRSC15750 | 7.76 | 14.9 | 4921 | 6140 | inactive |
| CG5245 | DRSC29337 | – | 5.38 | 352 | 4893 | inactive |
| CG6607 | DRSC16073 | 14.8 | 25.6 | 3650 | 4244 | inactive |
| Cnx99A + Cnx14D | DRSC16610 | 4.32 | – | 7173 | 316 | inactive |
| sphinx2 | DRSC22188 | 4.93 | 3.78 | 6331 | 6184 | inactive |
| sphinx2 | DRSC24771 | 2.47 | 2.36 | 6678 | 6870 | inactive |
| Mur89F | DRSC15544 | 2.97 | 13 | 6598 | 6624 | inactive |
| Mur89F | DRSC25291 | 5.13 | 4.41 | 6858 | 6509 | inactive |
| SCaMC | DRSC10293 | 10.8 | 9.2 | 5762 | 6198 | inactive |
| SCaMC | DRSC10415 | 4.7 | 16.8 | 5982 | 5460 | inactive |
| SCaMC | DRSC28518 | – | 6.81 | 395 | 2248 | inactive |
| Nop10 | DRSC28427 | 23.4 | 1.83 | 4923 | 1039 | inactive |
| Skeletor (retired record) | DRSC14905 | 5.41 | – | 4030 | 478 | inactive |
| Skeletor (retired record) | DRSC14906 | 13.2 | 5.15 | 6423 | 6569 | inactive |
| Mst84Dc | DRSC12599 | 20.2 | 3.32 | 5229 | 6567 | inactive |
| Obsc | DRSC04301 | 9.33 | 3.9 | 5801 | 6135 | inactive |
| Obsc | DRSC04302 | 14.1 | 41 | 6120 | 4806 | inactive |
| Obsc | DRSC04303 | 21.2 | 16.9 | 5766 | 3778 | inactive |
| Obsc | DRSC04430 | 16.3 | 36.4 | 4160 | 5480 | inactive |
| Obsc | DRSC22422 | 2.34 | 6.03 | 6038 | 6962 | inactive |
| eag | DRSC19067 | 0.83 | 0.5 | 6300 | 6387 | inactive |
| eag | DRSC20328 | 2.76 | 1.99 | 6593 | 6881 | inactive |
| eag | DRSC28295 | 0.21 | 1.29 | 469 | 1553 | inactive |
| CG6171 | DRSC15982 | 13.4 | 11.3 | 6329 | 6303 | inactive |
| CG9643 | DRSC00722 | 9.77 | 4.16 | 6507 | 6474 | inactive |
| CG9643 | DRSC27948 | 7.23 | 22.5 | 6290 | 5764 | inactive |
| bon | DRSC16914 | 2.02 | 1.23 | 6227 | 6566 | inactive |
| Nf-YA | DRSC23126 | 1.26 | 2.23 | 7000 | 7278 | inactive |
| CG6330 | DRSC16022 | 4.29 | 3.15 | 6639 | 6186 | inactive |
| Ac78C | DRSC11467 | 4.63 | 0.94 | 6032 | 5827 | inactive |
| Ac78C | DRSC11602 | 4.75 | 5.53 | 6228 | 6422 | inactive |
| Ac78C | DRSC11619 | 22.6 | 23.3 | 6882 | 5166 | inactive |
| Coq7 + shf | DRSC18448 | 15.4 | 7.34 | 6553 | 6481 | inactive |
| FAM21 | DRSC06623 | 6.61 | 14.2 | 6431 | 6220 | inactive |
| FAM21 | DRSC26589 | 2.35 | 4.61 | 5966 | 6003 | inactive |
| Hnf4 | DRSC03344 | 4.41 | 8.07 | 5755 | 6320 | inactive |
| Hnf4 | DRSC26864 | 3.08 | 4.9 | 6237 | 5609 | inactive |
| CG5815 | DRSC14135 | 22.1 | 6.88 | 4230 | 6964 | inactive |
| CG5815 | DRSC27943 | 11.5 | 22.7 | 5697 | 5441 | inactive |
| l(2)37Cb | DRSC02095 | 9.45 | 15.9 | 4668 | 5030 | inactive |
| l(2)37Cb | DRSC24383 | 6.17 | 3.89 | 4392 | 4860 | inactive |
| CG18281 | DRSC11742 | 9.68 | 12.2 | 5662 | 5456 | inactive |
| CG3726 | DRSC23143 | 2.9 | 5.54 | 6587 | 7742 | inactive |
| CG3726 | DRSC27453 | 5.74 | 9.62 | 6429 | 5676 | inactive |
| hfw | DRSC18506 | 9.93 | – | 4813 | 321 | inactive |
| hfw | DRSC25958 | 7.18 | 4.49 | 6462 | 6212 | inactive |
| CG3630 | DRSC18499 | 2.25 | 19.5 | 6458 | 2660 | inactive |
| CG3630 | DRSC28903 | 11 | 4.46 | 1805 | 964 | inactive |
| CG13116 | DRSC02214 | 6.13 | 4.84 | 6509 | 6709 | inactive |
| CG13116 | DRSC21945 | 5.51 | 21 | 6775 | 2873 | inactive |
| CG13116 | DRSC26916 | 20 | 8.24 | 6797 | 7042 | inactive |
| lt | DRSC03759 | 5.27 | 10.6 | 6150 | 6144 | inactive |
| CG12862 | DRSC06202 | 16.2 | 2.25 | 5787 | 6703 | inactive |
| Rrp42 | DRSC07161 | 5.45 | 11.9 | 5874 | 5673 | inactive |
| CG4074 | DRSC11752 | 5.28 | 4.12 | 6331 | 6328 | inactive |
| CG4074 | DRSC29915 | 15.1 | 6.15 | 6467 | 6179 | inactive |
| jv | DRSC08831 | 3.75 | 1.99 | 5755 | 5469 | inactive |
| jv | DRSC25736 | 2.35 | 2.25 | 6562 | 6751 | inactive |
| tn | DRSC05768 | 3.02 | 2 | 5989 | 5813 | inactive |
| tn | DRSC06532 | 5.55 | 7.42 | 6273 | 6318 | inactive |
| tn | DRSC27711 | 11 | 4.85 | 6285 | 6578 | inactive |
| Acp29AB | DRSC01857 | 18.6 | 11.4 | 5695 | 2784 | inactive |
| CG14568 | DRSC11729 | 4.27 | 7.76 | 6037 | 5902 | inactive |
| Rh4 | DRSC11268 | 1.36 | 13.7 | 6493 | 6881 | inactive |
| Rh4 | DRSC27381 | 37.3 | 44.5 | 6658 | 5602 | inactive |
| Tsp42Eg | DRSC06112 | 14.4 | 27.9 | 6712 | 5295 | inactive |
| eIF4EHP | DRSC13653 | 7.59 | 4.12 | 5613 | 5758 | inactive |
| eIF4EHP | DRSC14265 | 4.51 | 4.98 | 6474 | 6328 | inactive |
| Vha16-4 + CG15614 | DRSC07321 | 7.08 | 11.4 | 6457 | 6396 | inactive |
